Key:
M. tuberculosis CDC1551 = experiment: broth tube MIC (visible pellet) against M. tuberculosis CDC1551; assay type: cell-based, Mycobacterium tuberculosis; conditions: for SI A549: CC50 A549 / MIC M. tuberculosis CDC1551; for SI VERO: CC50 VERO / MIC M. tuberculosis CDC1551
[1] = test system: M. tuberculosis H37Rv (ATCC 27294); experiment: resazurin microtiter assay, MIC against M. tuberculosis H37Rv; assay type: cell-based, Mycobacterium tuberculosis; conditions: for SI A549: CC50 A549 / MIC M. tuberculosis H37Rv; for SI VERO: CC50 VERO / MIC M. tuberculosis H37Rv
M. tuberculosis H37Rv = conditions: ref Oliveira et al., [2014]; cited from earlier work

Structure (SMILES) | SI A549 (M. tuberculosis CDC1551) | SI VERO (M. tuberculosis CDC1551) | SI A549 [1] | SI VERO [1] | SI (measured against VERO cells) (M. tuberculosis H37Rv)
O.O.O=C([O-])c1ccccc1C(=O)[O-].[Mn+2].c1cnc2c(c1)ccc1cccnc12 [compound 5, [Mn(ph)(phen)(H2O)2]] | 1234 | >82 | 411 | 27 | –
CNC(=S)N/N=C(\C)c1ccccn1.CNC(=S)N/N=C(\C)c1ccccn1.[Mn+2] [[Mn(atc-Me)2]] | – | – | – | – | 5.3
O.O.O.O.O=C([O-])c1cccc(C(=O)[O-])c1.O=C([O-])c1cccc(C(=O)[O-])c1.[Mn+2].[Mn+2].c1cnc2c(c1)ccc1cccnc12.c1cnc2c(c1)ccc1cccnc12.c1cnc2c(c1)ccc1cccnc12 [compound 7, [Mn2(isoph)2(phen)3]·4H2O] | – | – | 164 | – | –
c1cnc2c(c1)ccc1cccnc12 [phen, 1,10-phenanthroline, reference compound] | 1.43 | 3 | 0.39 | 1 | –
O.O.O.O.O.O.O.O.O.O.O.O.O.O.O.O.O=C([O-])c1cccc(C(=O)[O-])c1.O=C([O-])c1cccc(C(=O)[O-])c1.[Mn+2].[Mn+2].c1cnc2c(c1)ccc1cccnc12.c1cnc2c(c1)ccc1cccnc12.c1cnc2c(c1)ccc1cccnc12.c1cnc2c(c1)ccc1cccnc12.c1cnc2c(c1)ccc1cccnc12 [compound 8, {[Mn(phen)2(H2O)2]}2(isoph)2(phen)·12H2O] | 1325 | > 240 | 84 | 16 | –
NNC(=O)c1ccncc1 [INH, Isoniazid, reference compound] | 5284 | 5513 | 5284 | 5513 | –
O.O.[Cl-].[Cl-].[Mn+2] [MnCl2·2H2O, reference compound] | – | – | <6.2 | <3.7 | –
C/C(=N\NC(=S)Nc1ccccc1)c1ccccn1.C/C(=N\NC(=S)Nc1ccccc1)c1ccccn1.[Mn+2] [[Mn(atc-Ph)2]] | – | – | – | – | > 641
O.O.O.O.O.O=C([O-])c1ccc(C(=O)[O-])cc1.[Mn+2].c1cnc2c(c1)ccc1cccnc12.c1cnc2c(c1)ccc1cccnc12 [compound 9, [Mn(tereph)(phen)2]·5H2O] | 663 | 123 | 74 | 14 | –
O.O.O.O.O.O=C([O-])c1ccccc1C(=O)[O-].[Mn+2].c1cnc2c(c1)ccc1cccnc12.c1cnc2c(c1)ccc1cccnc12 [compound 6, [Mn(ph)(phen)2(H2O)]·4H2O] | 682 | 31 | 183 | 8 | –

— paper PMC6036174 (Frontiers in Microbiology, 2018)
